Anti-infective test results gathered from many reports (values: NIAID ChemDB through PubChem).

Common to all: growth or infection tests; species: Mycobacterium tuberculosis

Two numbers with a dash give a range or band.

smiles,dose,method,read-out,cells,strain or isolate,changes,value
CCOC(=O)c1cn(CC)c2c(cc([N+](=O)[O-])c3cccnc32)c1=O,,,MIC90,,BCG,gyrA mutation D94G,2.5 µM
C=CN1C(=O)OC(c2ccccc2)C1c1ccccc1,,BACTEC,MIC bound,,H37Rv,,>12.5 µg/mL
O=c1nc(N2CC(=NOCc3ccccc3)C2)sc2c([N+](=O)[O-])cc(C(F)(F)F)cc12,,resazurin,MIC90,,16892 clinical isolate,,0.016 µg/mL
CCN1C(C#N)=C(C#N)N=C(c2ccccc2)[C@H]1/C=C/c1ccccc1,,broth dilution / visual reading,MIC,,H37Rv,,12.5 µg/mL
C=C1CCOC2(C(O)C(C)(O)CO)NC(=O)C1(O)NC2=O,,BACTEC,MIC bound,,H37Rv,,>12.5 µg/mL
N#C/C(=C\c1ccc(Br)cc1)n1nc2ccccc2n1,12.5 µg/mL,,inhibition,,,,6%
NNC(=O)CN(CC(=O)NN)CC(=O)NN,,BACTEC,MIC bound,,H37Rv,,>12.5 µg/mL
CCCCCCCN1C(=O)c2ccnnc2Oc2cc(C)ccc21,,BACTEC,EC50,,H37Rv,,>12.5 µg/mL
Cc1cc(C)c2c(n1)S(=O)(=O)N(CC(=O)NC1CCCCC1)/C(=C(/O)c1ccccc1)C2=O,,,MIC,,H37Rv,,>12.5 µg/mL
CC(=O)NC[C@H]1CN(c2ccc(N3CC4CC(=O)CC4C3)c(F)c2)C(=O)O1,,resazurin,MIC,,H37Rv,,0.5 µg/mL
CCOC(=O)CSc1nc(N)c2c3c(sc2n1)CC(C(C)(C)C)CC3,,MTT,MIC,,mc4914,,4 µM
CCCCCCCCCN1C(=O)c2ccnnc2Oc2cc(C)ccc21,12.5 µg/mL,BACTEC,inhibition,,H37Rv,,0%
CN(CC1CCCCC1)C1CCN(c2nc(=O)c3cc(C(F)(F)F)cc([N+](=O)[O-])c3s2)C1,,resazurin,MIC90,,16802 clinical isolate,,0.016 µg/mL
CCOC(=O)Cn1nc(-c2ccc([N+](=O)[O-])o2)sc1=O,,BACTEC,MIC,,H37Rv,,≥12.5 µg/mL
Cc1ccc(Oc2nc3ccccc3cc2C2C(C#N)=C(N)Oc3c2c(=O)oc2ccccc32)cc1,250 µg/mL,,inhibition,,H37Rv,,10%
CO/N=C1\CCCN(c2nc(=O)c3cc(C(F)(F)F)cc([N+](=O)[O-])c3s2)CC1,,resazurin,MIC90,,H37Rv,,0.06 µg/mL
CC(=O)NC[C@H]1CN(c2ccc(N3CC4CC(=NO)CC4C3)c(F)c2)C(=O)O1,,resazurin,MIC,,H37Rv,,0.5 µg/mL
CCCCCCCN1C(=O)c2cc(Cl)nnc2Oc2ccc(C)cc21,12.5 µg/mL,BACTEC,inhibition,,H37Rv,,43%
O=C1OC(c2cccc3ccccc23)=N/C1=C/c1cccs1,,MTT,MIC,,H37Rv,,20.5 µM
NC(=O)c1cnccn1,,,MIC,,W478,,15 µg/mL
N#CC1=C(N)Oc2c(c(=O)oc3ccccc23)C1c1cc2ccccc2nc1Oc1ccccc1,250 µg/mL,,inhibition,,H37Rv,,21%
O=[N+]([O-])c1ccc2oc3cccnc3c2c1,12.5 µg/mL,BACTEC,inhibition,,H37Rv,,2%
CCN1C(C#N)=C(C#N)N=C(c2cccs2)[C@H]1/C=C/c1ccccc1,,broth dilution / visual reading,MIC,,H37Rv,,12.5 µg/mL
COc1ccccc1/C=N/N=C(\N)c1ccncc1,,,MIC,,H37Rv,,4 µg/mL
Oc1ccccc1C(=S)NCc1cccc(C(F)(F)F)c1,,,MIC,,My 331/88,,0.5 µg/mL
COC(=O)c1ccc(/C=C2\N=C(c3ccc(F)cc3)OC2=O)cc1,,MTT,MIC,,H37Rv,,38.5 µM
COc1ccc(/C=C2\N=C(c3ccc(Cl)c(Cl)c3)OC2=O)cc1OC,,BACTEC,MIC bound,,H37Rv,,>12.5 µg/mL
COc1ncc(F)c2nc(S(=O)(=O)Nc3ncccc3C(C)=O)nn12,,visual reading,MIC50,,M23,INH RIF resistant,0.5 µM
Cc1ccc2nc(Oc3ccccc3)c(C3C(C#N)=C(N)Oc4c3c(=O)oc3ccc(C)cc43)cc2c1,250 µg/mL,,inhibition,,H37Rv,,10%
COc1ncc(F)c2nc(S(=O)(=O)Nc3c(O)cccc3C(C)O)nn12,,visual reading,MIC50,,P887,INH RIF resistant,0.5 µM
CC(C)=CCC1=C(O)c2ccccc2C(=O)C1=O,,BACTEC,MIC bound,,H37Rv,,≤128 µg/mL
CCON=C1CN(c2nc(=O)c3cc(C(F)(F)F)cc([N+](=O)[O-])c3s2)C1,,resazurin,MIC90,,H37Rv,,<0.016 µg/mL
O=C(CCC(F)(F)F)N1CC(c2ccc(Cl)nc2)C1,,fluorescence,EC50,THP-1,H37Rv,,0.05–0.25 µM
COC(=O)CSc1nc(N)c2c3c(sc2n1)CC(C(C)(C)C)CC3,,MTT,MIC,,H37Rv,,1 µM
O=C1C=CC(=Nc2ccc(O)cc2)C=C1,12.5 µg/mL,BACTEC,inhibition,,H37Rv,,5%
C=CCN1C(=O)c2c(C)cc(C)nc2S1(=O)=O,12.5 µg/mL,,inhibition,,H37Rv,,0%
CN(C=O)C(=S)[S][Sb]([S]C(=S)Nc1ccc(S(=O)(=O)Nc2ccc(N=Nc3ccccc3)cc2)cc1)[S]C(=S)N(C)C=O,,BACTEC,MIC bound,,H37Rv,,≤128 µg/mL
CCn1cc(C(=O)O)c(=O)c2cc(F)c(N3CCNCC3)cc21,,,MIC90,,21 strains,,8 µg/mL
CC[C@H]1OC(=O)[C@H](C)C(=O)[C@H](C)[C@@H](O[C@@H]2O[C@H](C)C[C@H](N(C)C)[C@H]2O)[C@](C)(OC)C[C@@H](C)C(=O)[C@H](C)[C@H]2N(CCCCn3cnc(-c4cccnc4)c3)C(=O)O[C@]12C,,,MIC,,Isolate 900216,,>40 µg/mL
CC(C)CCn1c2ccccc2c2nc3cc(OC(C)C)c(OC(C)C)cc3nc21,,MTT,MIC,,H37Rv,,100 µM
Cc1cc(C)c2c(=O)n(CC(O)CN3CCCC3)sc2n1,,,MIC,,H37Rv,,>12.5 µg/mL
CC(O)CSc1nc(N)c2c3c(sc2n1)CC(C)CC3,,MTT,MIC,,H37Rv,,160 µM
Cc1ccc(CNC(=O)c2cc(C)ccc2O)cc1,,,MIC,,My 331/88,,125 µg/mL
CCCCCCCN1C(=O)c2cc(Cl)nnc2Oc2cc(C)ccc21,,BACTEC,EC50,,H37Rv,,<12.5 µg/mL
CC(=O)/C(N=Nc1ccc(-c2nnc(NC3CCCCC3)s2)cc1)=C(\C)O,6.25 µg/mL,BACTEC,inhibition,,H37Rv,,11%
CCCCCCN1C(=O)c2cc(Cl)nnc2Oc2ccccc21,12.5 µg/mL,BACTEC,inhibition,,H37Rv,,8%
O=c1nc2c(ncn2Cc2ccccc2)c(-c2ccco2)n1Cc1ccccc1,,,EC50,,H37Rv,,>12.5 µg/mL
NNC(=O)c1ccncc1,,broth dilution / visual reading,MIC,,H37Rv,,0.1 µg/mL
O=C(CCC(F)(F)F)N1CC(c2ccc(F)cc2Cl)C1,,fluorescence,EC50,THP-1,H37Rv,,0.05–0.25 µM
Cc1cc(C(=O)NN)c(C#N)c(=O)[nH]1,,resazurin,MIC bound,,H37Rv,,>6.25 µg/mL
O=Nc1c2c3ccccc3[nH]c(N3CCC(O)CC3)c-2c2ccccc12,,resazurin / fluorescence,MIC90,,H37Rv,,>20 µg/mL
CCOC(=O)CN1C(C(C)=O)=C(O)c2c(C)cc(C)nc2S1(=O)=O,,,EC50,,H37Rv,,>12.5 µg/mL
N#C/C(=C\c1ccccc1)n1nc2ccccc2n1,,,EC50,,,,<12.5 µg/mL
CCn1cc(C(=O)O)c(=O)c2cc([N+](=O)[O-])c3cccnc3c21,,,MIC90,,BCG,,2.67 µM
COc1cc(OC)c2c(=O)cc(-c3ccncc3)oc2c1,,BACTEC,MIC bound,,H37Rv,,>12.5 µg/mL
O=C(CCC(F)(F)F)N1CC(c2ccnc(C(F)(F)F)c2)C1,,fluorescence,EC50,THP-1,H37Rv,,0.05–0.25 µM
Cc1cc(-c2cc3c(cc2F)c(=O)c(C(=O)O)cn3C2CC2)cc(C)n1,,,MIC,,1773-6,,4 µg/mL
CC1SC2(C(=O)N(CN3CCCCC3)c3ccccc32)N(c2ccccc2)C1=O,12.8 µg/mL,BACTEC,inhibition,,H37Rv,,11%
O=C(CCC(F)(F)F)N1CC(c2cccc(F)c2)C1,,fluorescence,EC50,THP-1,H37Rv,,<0.05 µM
CCN1CC(c2ccsc2)=NC(C#N)=C1C#N,,broth dilution / visual reading,MIC,,H37Rv,,6.2 µg/mL
Cc1ccc(/C=C(\C#N)n2nc3ccccc3n2)cc1,,,EC50,,,,>12.5 µg/mL
O=C(CCC(F)(F)F)N1CC(c2ccc(C(F)(F)F)cn2)C1,,fluorescence,EC50,THP-1,H37Rv,,1–10 µM
N#C/C(=C\c1ccc(N)cc1)n1nnc2ccccc21,12.5 µg/mL,,inhibition,,,,33%
NNC(=O)c1ccc[n+](Cc2ccccc2)c1.[Cl-],12.5 µg/mL,BACTEC,inhibition,,H37Rv,,18%
COc1ccc(Nc2nnc(-c3ccc(NC(=S)Nc4ccccc4)cc3)s2)cc1,6.25 µg/mL,BACTEC,inhibition,,H37Rv,,5%
Cc1ccc(/C=N/N=C(\N)c2ccncc2)c(C)c1,,,MIC,,H37Rv,,8 µg/mL
c1ccc2c(c1)Nc1ccc3ccccc3c1S2,,BACTEC,MIC bound,,H37Rv,,≤12.5 µg/mL
Oc1cc(Cl)ccc1C(=S)NCc1ccc(Cl)c(Cl)c1,,,MIC,,My 331/88,,2 µg/mL
CCCc1ccc(C(=O)Nc2nc3ccccc3s2)cc1,,MTT,MIC,,mc4914,,33.9 µM
N#C/C(=C\c1ccc(C(F)(F)F)cc1)n1nc2ccccc2n1,12.5 µg/mL,,inhibition,,,,17%
CON=C1CN(c2nc(=O)c3cc(C(F)(F)F)cc([N+](=O)[O-])c3s2)C1,,resazurin,MIC90,,16892 clinical isolate,,0.016 µg/mL
CC(=O)C1=C(O)c2c(C)cc(C)nc2S(=O)(=O)N1,,,EC50,,H37Rv,,>12.5 µg/mL
N/C(=N\N=C\c1ccccc1Br)c1ccncc1,,,MIC,,H37Rv,,8 µg/mL
CCOC(=O)C(CO)c1nc2c([nH]c1=O)c(=O)n(C)c(=O)n2C,,BACTEC,MIC bound,,H37Rv,,>12.5 µg/mL
CCCCCCCN1C(=O)c2cc(Cl)nnc2Oc2ccc(Cl)cc21,12.5 µg/mL,BACTEC,inhibition,,H37Rv,,38%
COC(=O)C1=C2Nc3ccccc3C23CCN2C(O)C4(C[C@@H]5C[C@]67CCO[C@H]6CCN6CCC8(c9cccc(OC)c9N(C4)[C@@]58O)[C@@H]67)[C@@H]4OCCC4(C1)[C@H]23,12.5 µg/mL,BACTEC,inhibition,,H37Rv,,47%
N/C(=N\N=C\c1ccccc1Cl)c1ccncc1,,,MIC,,Isolate 1751 ofloxacin-resistant,,8 µg/mL
COc1ccc(C=O)cc1,,resazurin,MIC,,H37Rv,,8.16 µg/mL
CCC1C(C)C=CN1c1nc(N)nc(NS(=O)(=O)c2cc(C)c(Cl)cc2S)n1,,BACTEC,MIC bound,,H37Rv,,>12.5 µg/mL
Cc1ccccc1Nc1nnc(-c2ccc(N)cc2)s1,6.25 µg/mL,BACTEC,inhibition,,H37Rv,,7%
N#C/C(=C\c1ccc(Br)cc1)n1nnc2ccccc21,12.5 µg/mL,,inhibition,,,,99%
COc1ccc(C2=C/C(=C3/C(=O)Oc4ccccc4C3=O)SS2)cc1,12.5 µg/mL,BACTEC,inhibition,,H37Rv,,0%
Oc1ccccc1C(=S)NCc1ccc(Cl)c(Cl)c1,,,MIC,,My 331/88,,0.49 µg/mL
CN(C)c1ccc(/C=C(\NC(=O)c2ccccc2)c2nc3c4c(ccc3[nH]2)C(=O)c2ccccc2C4=O)cc1,6.25 µg/mL,resazurin,inhibition,,H37Rv,,38%
CC(=O)/C(N=Nc1ccc(-c2nnc(Nc3ccccc3)s2)cc1)=C(\C)O,6.25 µg/mL,BACTEC,inhibition,,H37Rv,,0%
COc1cc(C2C3=C(N=C4SC(C(C)=O)=C(C)N42)c2ccccc2CC3)cc(OC)c1OC,,BACTEC,MIC bound,,H37Rv,,>12.5 µg/mL
O=c1nc2c(ncn2Cc2ccccc2)c(-c2cccs2)n1Cc1ccccc1,,,MIC,,H37Rv,,>12.5 µg/mL

The first 6 rows once more:

smiles,dose,method,read-out,cells,strain or isolate,changes,value
CCOC(=O)c1cn(CC)c2c(cc([N+](=O)[O-])c3cccnc32)c1=O,,,MIC90,,BCG,gyrA mutation D94G,2.5 µM
C=CN1C(=O)OC(c2ccccc2)C1c1ccccc1,,BACTEC,MIC bound,,H37Rv,,>12.5 µg/mL
O=c1nc(N2CC(=NOCc3ccccc3)C2)sc2c([N+](=O)[O-])cc(C(F)(F)F)cc12,,resazurin,MIC90,,16892 clinical isolate,,0.016 µg/mL
CCN1C(C#N)=C(C#N)N=C(c2ccccc2)[C@H]1/C=C/c1ccccc1,,broth dilution / visual reading,MIC,,H37Rv,,12.5 µg/mL
C=C1CCOC2(C(O)C(C)(O)CO)NC(=O)C1(O)NC2=O,,BACTEC,MIC bound,,H37Rv,,>12.5 µg/mL
N#C/C(=C\c1ccc(Br)cc1)n1nc2ccccc2n1,12.5 µg/mL,,inhibition,,,,6%

ECn is the concentration giving n% inhibition of infection, replication or growth. Lines come from different laboratories, so protocols vary. MIC50, MIC90 and the like: level of inhibition, or share of isolates inhibited. Percent inhibition refers to the dose given; in toxicity tests it is the harm to the cells. MIC bound: limit read from a one-dose screen. Blank or dashed fields: not listed here.